In ChEMBL document CHEMBL5107986, “Small molecule NS5B RdRp non-nucleoside inhibitors for the treatment of HCV infection: A medicinal chemistry perspective” (Eur J Med Chem, 2022) one finds EC50 data, which are given here for one molecule.

Each structure is given as a SMILES string.

This experiment relates to Hepatitis C virus. Description: Antiviral activity against HCV GT1b assessed as inhibition of viral replication. It is filed as functional, organism-based, Hepacivirus hominis.

Turning to `CCO[P@]1(=O)N=C(C2=C(O)[C@H](C(C)(C)C)N(CCC(C)(C)C)C2=O)Nc2ccc(NS(C)(=O)=O)cc21`, the EC50 – broadly, the midpoint of the concentration-response curve – was found to be 5 nM.
